Tested on: HIV viruses
Assay: Cross resistance study with more than 8000 viruses

## Cn1c2ccccc2c2c1cc(C#N)c(=O)n2-c1ccc([N+](=O)[O-])cc1 [Compound 2, 5-methyl-1-(4-nitro-phenyl)-2-oxo-2,5-dihydro-1H-pyrido[3,2-b]indole-3-carbonitrile]
  calculated correlation coefficient with 3TC: about 0.63
All cases
  correlation coefficient with known NNRTIs (capravirine, delavirdine, nevirapine, efavirenz): ≤ 0.13
All cases except 3TC
  calculated correlation coefficient with known NRTIs (abacavir, AZT, D4T, DDC, DDI): lower than 0.28

— US20070249655A1, “4-Substituted-1,5-Dihydro-Pyrido[3,2-B]Indol-2-Ones” (priority 2004, published 2007)
